The source of these data is PMC9089915, “The SUMO E3 ligase activity of ORF45 determines KSHV lytic replication” (PLoS Pathogens, 2022).

In the assay the target is T1, purified His-tagged KSHV ORF45 protein (KSHV).
T1 construct: also called recombinant ORF45; recombinant KSHV ORF45; source: recombinant, purified
Put plainly: pull-down; GST only, GST-SUMO1, GST-SUMO2 (or SUMO G/A mutants) on glutathione-Sepharose beads mixed with 0.5 μg purified His-tagged ORF45 in vitro for 30 min; Coomassie staining and IB with anti-ORF45. Conditions: both partners purified.

B1: GST-SUMO1 (natural protein)
chain: not shown
notes: source: purified by Glutathione Sepharose 4B
In the case of B1, the binding result is listed as “binds”.

B2: GST-SUMO2 (natural protein)
chain: not shown
notes: as for B1
Turning to B2, the binding result is given as “binds”.

B3: GST-SUMO2^G92A/G93A (natural protein)
chain: not shown
notes: also called SUMO2^G/A; SUMO G/A mutant; source: purified by Glutathione Sepharose 4B
As for B3, the binding result was “binds”.
